From ChEMBL document CHEMBL3988442, “University of Dundee, Small-Polar-MMV Screening Library” (2021).

Each number is a percent effect as filed. The record does not define 0% and 100%; most values in the screen are far below 50% and negative numbers occur (in some assays of this library far below -100). The entries come from a sample that favours strong results. Two or more numbers in one place are separate tests of the same structure; such repeats can differ widely. A dash means the value is not listed here; it may have been measured.

Mtb cholesterol medium: 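Phenotypic screen: M. tuberculosis growth, cholesterol and DPPC medium, 4 days; the read-out is not stated. Compounds at 50 µM. Direction is inferred from retests: higher values go with more growth inhibition. About 69,000 compounds were tested under these conditions; 0.54% (about 370) showed 50% or more at least once.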
Mtb glucose medium: 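Phenotypic screen: M. tuberculosis growth, glucose 7H9 medium, 3 days; the read-out is not stated. Tested at 50 µM. The record gives no direction; compounds that gave an IC50 in retests scored well above the rest, so higher reads as more growth inhibition. Size under these conditions: about 69,000 compounds, about 760 of them at 50% or above in at least one test.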

| # | Compound | Mtb cholesterol medium | Mtb glucose medium |
|---|---|---|---|
| 1 | `Cc1ccn(-c2ccccc2NCc2cccnc2C)n1` | - | 25.47 & 29.05 |
| 2 | `CCNc1ncc(C(=O)N2CCOC(CCCc3ccccc3)C2)cn1` (centres undefined) | 20.72 & 25.68 | 13.81 |
| 3 | `CN(C)C(=O)CCNC(=O)Nc1cccc(Cl)c1-n1cccn1` | - | -13.85 |
| 4 | `CCSc1ncc(CN2CCN(c3nc(C)ncc3C)CC2)cn1` | 33.93 | 19.37 |
| 5 | `CCOCc1ccc(CNc2cncc(-n3cccn3)n2)cc1` | 20.78 | - |
| 6 | `CN(CCC(N)=O)Cc1cc(Br)cs1` | 8.04 | - |
| 7 | `COc1cccc(CN2CCCC2c2c(C)nn(C)c2C)c1` (centres undefined) | - | 68.63 |
| 8 | `O=C(CC1CCc2ccccc21)NC1(C(=O)O)CCOCC1` (centres undefined) | -9.297 | - |
| 9 | `O=C(CCO)N1CCC2(CCc3ccc(-c4ccoc4)cc32)CC1` | - | 8.569 & 1.626 |
| 10 | `Fc1ccc(OC2CCN(CCn3cncn3)CC2)cc1` | -10.15 | -8.97 & 1.797 |
| 11 | `OCC(CO)Nc1ccc2ccc(Cl)c(Cl)c2n1` | - | -2.39 |
| 12 | `COCCN1CCC(NCc2cccc(C)c2)C1` (centres undefined) | - | -14.49 |
| 13 | `CSCCC(CO)NC(=O)c1sc(-c2ccccc2Cl)nc1C` (centres undefined) | -8.555 | 0.6458 |
| 14 | `COCC1CCN(c2nc(C(C)(C)C)nc3c2cnn3C)C1` (centres undefined) | - | 47.83 |
| 15 | `CC(C)c1nccn1C1CCCN(C(=O)c2ccc3[nH]cnc3c2)C1` (centres undefined) | 3.381 | - |
| 16 | `CCc1nc(C)sc1CN(Cc1ccncc1)C1CCN(C)CC1` | - | -28.09 & -4.998 |
| 17 | `CCOc1ccc(C(=O)NCc2ccnc(N3CCCC3)c2)cn1` | 4.165 | 24.72 & 14.17 |
| 18 | `CCOc1cc(Cl)ccc1CNC(=O)N(C)CC(C)(C)O` | - | -2.512 |
| 19 | `Cc1ccc(S(=O)(=O)NCCc2ccoc2)s1` | 71.89 | - |
| 20 | `CNc1nc(C(=O)NCC2CCOc3ccccc3C2)cs1` (centres undefined) | -13.87 | -0.6202 & 7.997 |
| 21 | `Cc1ncc(CN(C)CC(O)c2ccc(OC(F)(F)F)cc2)s1` (centres undefined) | 35.77 | - |
| 22 | `CC1=C(C(=O)N2CCOC(Cc3cccc(C(F)(F)F)c3)C2)OCCO1` (centres undefined) | - | 27.05 & 1.693 |
| 23 | `CC(C)OCc1ccc(CNc2cncc(-n3cccn3)n2)cc1` | 50.64 | - |
| 24 | `CN(C(=O)CN1CCCC1Cc1ccccc1)c1ccccc1` (centres undefined) | - | 50.05 & 40.5 |
| 25 | `Cn1cncc1CN1CCCC1c1cncc(Oc2ccc(F)cc2)n1` (centres undefined) | - | 62.76 |
| 26 | `Cc1ccc(-c2nc(CN3CCOC(c4ccccc4)C3)cs2)o1` (centres undefined) | - | 51.2 |
| 27 | `Cc1nc2c(c(N3CCC(CCn4cccn4)CC3)n1)CCNCC2` | - | 79.71 |
| 28 | `COc1cc(Cl)cc(CN2CCCC(N3CCCC3)C2)c1OC` (centres undefined) | - | 70.79 |
| 29 | `NC(=O)CC1CCN(C(=O)CCOc2ccc(Cl)cc2)CC1` | - | -21.63 |
| 30 | `CC(C)Cc1nc(CN(C)CCOc2ccccc2F)no1` | - | -16.83 |
| 31 | `O=C(CCC1CCCC1)N1CCC(c2ncc3c(n2)CCNC3)CC1` | - | 41.09 |
| 32 | `OCC1(Cc2ccccc2F)CCCN(c2ccc3ccccc3n2)C1` (centres undefined) | 3.021 | 19.95 |
| 33 | `Cc1cc2nc(C(C)C)cc(NCCc3ccncc3)n2n1` | - | 11.74 |
| 34 | `O=C(CCc1cccs1)N1CCC(N2CCNC2=O)CC1` | - | 10.12 |
| 35 | `O=C1NCCCCC1NS(=O)(=O)N1CCCCCC1` (centres undefined) | - | -0.9086 |
| 36 | `NC(=O)NC(=O)CCN1CCN(c2nccs2)CC1` | - | 57.79 |
| 37 | `COc1ccc(CNc2cccnc2-n2cccn2)c(OC)c1OC` | - | 8.388 & 1.049 |
| 38 | `Cc1ncsc1C(=O)NCCNC(=O)c1cccs1` | - | 9.785 |
| 39 | `O=C1CCCN1Cc1nnc(SCc2ccc3c(c2)CCC3)o1` | 26.86 & 41.45 | 31.7 |
| 40 | `CNc1oc(COc2ccc3c(c2)OCO3)nc1C#N` | 15.64 | -6.656 |
| 41 | `Cc1ccc(CNC(CN2CCN(C)CC2)c2ccccc2)cc1C` (centres undefined) | - | 52.51 |
| 42 | `Cc1nn2c(NCC(N)=O)cc(-c3ccccc3)nc2c1C` | -25.49 & -3.028 | - |
| 43 | `O=C(NCC(CO)Cc1ccc(Cl)cc1)c1ccncc1Cl` (centres undefined) | - | 72.88 & 5.181 |
| 44 | `CC(C)(C)OC(=O)NCCc1csc(N2CCCC2)n1` | - | 54.05 |
| 45 | `O=C(Nc1ccccc1OC1CCOC1)c1[nH]nc2c1CCCC2` (centres undefined) | - | 50.7 |
| 46 | `CCOc1ccc(CN2CCCC(c3cc4ncccc4[nH]3)C2)cc1` (centres undefined) | 37.51 & 43.69 | - |
| 47 | `Fc1ccc(F)c(CN2CCC(c3n[nH]c4ncccc34)CC2)c1.O=C(O)CC(O)(CC(=O)O)C(=O)O` | - | 25.52 |
| 48 | `Cc1noc(NC(=O)c2ccc(F)cc2)n1` | -4.074 | 36.12 |
| 49 | `Cc1cc2[nH]c(O)nc2cc1NCc1ccccc1` | - | 32.63 & 13.11 |
| 50 | `O=C(Cc1ccc2c(c1)OCO2)N1CCN(c2ccncc2)CC1` | -7.904 | - |
| 51 | `Cc1cc(Br)oc1C(=O)N1CCCN(CC(N)=O)CC1` | - | -36.48 |
| 52 | `Cc1cc(CNc2ccc3nc(C)sc3c2)no1` | 0.4344 | - |
| 53 | `COc1ccc(CN(C(=O)C2CCCS2)c2ccncc2)cc1` (centres undefined) | 61.92 | 80.28 & 48.56 |
| 54 | `CNC(=O)NCCc1csc2ccccc12` | - | 60.66 |
| 55 | `N[C@@H]1CCC[C@@H](Oc2ccc(F)cc2Oc2cccc(F)c2)[C@@H]1O` | - | 3.825 |
| 56 | `Cn1cc(-c2cc(C(=O)N3CCOCC3)c3ccc(F)cc3n2)cn1` | - | -27.15 |
| 57 | `Cc1nc2n(n1)CC(NCc1nc(C)c(C)o1)CC2` (centres undefined) | -0.445 | - |
| 58 | `NC(=O)C1=NC2=NS(=O)(=O)c3ccccc3N2N1Cc1ccccc1Cl` | 16.33 | -20.59 |
| 59 | `Cc1ccc(C(=O)NCCCNS(C)(=O)=O)cc1-n1cccc1` | - | 14.07 & 4.882 |
| 60 | `Cc1nc(NCCSc2ccccn2)c2c(C)noc2n1` | -3.762 | - |
| 61 | `Cc1ccc(C(=O)N2CCN(Cc3ccsc3)CC2)n1C` | - | -3.684 |
| 62 | `C=C/C=c1\c(=C/C)oc2c(NCc3ccccc3)nc(CC)nc12` | 58.86 | 69.24 |
| 63 | `CCOCCN(C)C(c1cccnc1)c1ccc(F)cc1F` (centres undefined) | 90.94 & 1.96 | - |
| 64 | `CC1COc2ccccc2N1C(=O)CCc1cscn1` (centres undefined) | - | 32.33 & 16.98 |
| 65 | `CSc1nccc(N2CCC3(CCCN(Cc4ccc(F)cc4)C3)C2)n1` (centres undefined) | 62.9 | 91.36 |
| 66 | `COc1cccc2sc(N3CCN(C(=O)c4cc(C)on4)CC3)nc12` | -16.67 | - |
| 67 | `Fc1ccccc1CC1CCN(Cc2ccccn2)CC1` | 16.5 | - |
| 68 | `CC(C)COC(C)C(=O)NCc1ccc(OC(C)C)nc1` (centres undefined) | 9.329 | 15.47 |
| 69 | `CC(O)(CNc1ccccn1)c1ccccc1` (centres undefined) | -21.23 | -37.33 |
| 70 | `CCOC(=O)CN(CC(F)(F)F)C(=O)c1nc(C)n2ccccc12` | - | 2.526 & -12.14 |
| 71 | `CC(=O)N1CCCC(c2cnc(-c3c(C)nn(C)c3C)cn2)C1` (centres undefined) | - | 64.01 |
| 72 | `[H][C@]12CC[C@]([H])(CN(c3cc(OC)ncn3)C1)N(CC1CCC1)C2=O` | - | -16.51 |
| 73 | `CC(C(=O)NCCOc1cccc(Cl)c1)n1cncn1` (centres undefined) | - | -14.68 |
| 74 | `O=C(NC1CC1)c1cnc(-c2noc3cc(N4CCCCC4)ccc23)s1` | - | -29.9 & -3.89 |

Repeated from the top, 7 entries:

- Cc1ccn(-c2ccccc2NCc2cccnc2C)n1 | Mtb glucose medium: 25.47% & 29.05%
- CCNc1ncc(C(=O)N2CCOC(CCCc3ccccc3)C2)cn1 (centres undefined) | Mtb cholesterol medium: 20.72% & 25.68%; Mtb glucose medium: 13.81%
- CN(C)C(=O)CCNC(=O)Nc1cccc(Cl)c1-n1cccn1 | Mtb glucose medium: -13.85%
- CCSc1ncc(CN2CCN(c3nc(C)ncc3C)CC2)cn1 | Mtb cholesterol medium: 33.93%; Mtb glucose medium: 19.37%
- CCOCc1ccc(CNc2cncc(-n3cccn3)n2)cc1 | Mtb cholesterol medium: 20.78%
- CN(CCC(N)=O)Cc1cc(Br)cs1 | Mtb cholesterol medium: 8.04%
- COc1cccc(CN2CCCC2c2c(C)nn(C)c2C)c1 (centres undefined) | Mtb glucose medium: 68.63%